{
  "sequences": {"note": "Protein sequences, listed by entry. Tags and fused reporters are not part of them.", "UniProt P0DPI0, whole entry, looked up": "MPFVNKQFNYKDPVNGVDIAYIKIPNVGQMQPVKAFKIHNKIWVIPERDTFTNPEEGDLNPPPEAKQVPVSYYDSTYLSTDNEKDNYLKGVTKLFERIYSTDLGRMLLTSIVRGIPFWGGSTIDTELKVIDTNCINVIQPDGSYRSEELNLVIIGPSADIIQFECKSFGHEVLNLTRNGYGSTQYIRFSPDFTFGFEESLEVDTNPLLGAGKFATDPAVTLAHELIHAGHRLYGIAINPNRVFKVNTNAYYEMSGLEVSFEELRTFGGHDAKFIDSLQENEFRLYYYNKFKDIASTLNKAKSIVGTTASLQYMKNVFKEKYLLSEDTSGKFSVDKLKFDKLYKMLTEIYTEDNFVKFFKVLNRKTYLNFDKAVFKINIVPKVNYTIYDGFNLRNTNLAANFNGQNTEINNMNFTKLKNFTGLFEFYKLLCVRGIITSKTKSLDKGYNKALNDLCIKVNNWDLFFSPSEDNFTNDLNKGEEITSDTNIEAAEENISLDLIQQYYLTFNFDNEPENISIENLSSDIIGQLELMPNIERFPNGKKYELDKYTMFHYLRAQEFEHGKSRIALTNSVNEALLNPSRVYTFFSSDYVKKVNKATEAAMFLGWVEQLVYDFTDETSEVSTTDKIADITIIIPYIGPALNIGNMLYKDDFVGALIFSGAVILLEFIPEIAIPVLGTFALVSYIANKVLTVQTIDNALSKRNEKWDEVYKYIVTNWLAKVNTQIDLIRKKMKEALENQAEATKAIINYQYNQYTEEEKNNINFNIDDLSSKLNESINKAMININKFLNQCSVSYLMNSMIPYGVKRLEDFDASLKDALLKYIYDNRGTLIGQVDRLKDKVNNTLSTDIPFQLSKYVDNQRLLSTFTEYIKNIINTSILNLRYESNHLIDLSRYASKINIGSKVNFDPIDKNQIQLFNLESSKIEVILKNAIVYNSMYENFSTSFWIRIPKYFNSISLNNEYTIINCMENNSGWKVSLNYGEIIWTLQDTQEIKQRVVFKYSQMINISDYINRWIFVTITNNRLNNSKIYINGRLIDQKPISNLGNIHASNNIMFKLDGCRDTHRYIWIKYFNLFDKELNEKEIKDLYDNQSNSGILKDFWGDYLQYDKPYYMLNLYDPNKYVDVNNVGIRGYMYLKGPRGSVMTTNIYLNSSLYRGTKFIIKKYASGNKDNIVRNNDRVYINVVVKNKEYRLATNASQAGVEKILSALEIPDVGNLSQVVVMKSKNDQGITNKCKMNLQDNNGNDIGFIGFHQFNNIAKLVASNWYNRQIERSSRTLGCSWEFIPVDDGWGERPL"},
  "source": "ChEMBL document CHEMBL1153454",
  "about": "“Botulinum neurotoxin serotype A inhibitors: small-molecule mercaptoacetamide analogs” (2009)",
  "biological_target": "Botulinum neurotoxin type A (Clostridium botulinum) (UniProt P0DPI0)",
  "assay": "Inhibition of Clostridium botulinum recombinant Bont/A light chain expressed in Escherichia coli BL21 GOLD at 50 uM",
  "data": [
    {"compound": "O=C(CO)Nc1cc(-c2ccc(Cl)cc2)n[nH]1", "values": [
      {"measurement": "inhibition", "result": "< 10", "unit": "%"}
    ]},
    {"compound": "CC(=O)Nc1cc(-c2ccc(Cl)cc2)n[nH]1", "values": [
      {"measurement": "inhibition", "result": "< 10", "unit": "%"}
    ]}
  ]
}
